Measured values from several laboratories, pooled; numbers as filed in NIAID ChemDB.

All rows: host cell toxicity; measure: CC50

CCn is the concentration with n% toxicity to the cells. a–b is a range or a potency band. Blank or dashed fields: not listed here. Conditions beyond the fields shown may differ between rows.

SMILES	cells	read by	value
COc1ccc(Cc2cc(C3CCN(C(=O)c4ccc5c(c4)OCCO5)CC3)nc(N)n2)cc1	Jurkat cells (PMA-stimulated)	-	>5 µM
Nc1ncnc2c1c(-c1ccccc1)cn2[C@@H]1O[C@H](CO)[C@@H](O)C1(F)F	Replicon cells	XTT	41.83 µM
CCOC(=O)C1=C(CN2CC(F)(F)[C@@H]3[C@H]2CON3C[C@@H](O)C(C)(C)C(=O)O)NC(c2nccs2)=N[C@H]1c1cccc(F)c1Cl	HepG2.2.15	WST / absorbance	>100 µM
Nc1ncnc2c1c(-c1ccco1)cn2[C@@H]1O[C@H](CO)[C@@H](O)C1(F)F	Replicon cells	XTT	25.47 µM
Cc1cc(C)n(-c2nc3c(c(=O)n2-c2ccc(NC[C@H](O)CO)nc2)C[C@@H](C)N(C(=O)c2ccc(Br)c(C(F)(F)F)c2)C3)n1	HepG2.117	luminescence	>0.5 µM
Oc1[nH]c2ccc(OC(F)(F)F)cc2c1N=NC(=S)Nc1ccccc1	hRD	-	>25 µM
Nc1ncnc2c1c(-c1ccsc1)cn2[C@@H]1O[C@H](CO)[C@@H](O)[C@H]1F	Replicon cells	XTT	27.55 µM
Cc1cc(C)n(-c2nc3c(c(=O)n2-c2cnc4c(c2)ncn4C)C[C@@H](C)N(C(=O)c2ccc(Br)c(C(F)(F)F)c2)C3)n1	HepG2.117	luminescence	>0.5 µM
O=C(NCCc1ccc2c(n1)NCCC2)Nc1ccc(OC(F)F)cc1	PBMC	-	1.9 µM
CCOC(=O)C1=C(CN2CC(F)(F)[C@@H]3[C@H]2CON3C[C@H](F)C(C)(C)C(=O)O)NC(c2nccs2)=N[C@H]1c1cccc(F)c1C	HepG2.2.15	WST / absorbance	>50 µM
O=C(NCCc1ccc2c(n1)NCCC2)Nc1cccc(F)c1	PBMC	-	50 µM
O=C(C(=O)N1CCN(C(=O)c2ccccc2)CC1)c1c[nH]c2c(-n3cncn3)ccnc12	HeLa	trypan blue	>100 µM
Nc1nc(Cc2ccc(OCc3ccccc3)cc2)cc(C2CCN(C(=O)c3ccc4c(c3)OCO4)CC2)n1	Jurkat cells (PMA-stimulated)	-	1.2 µM
COC(=O)CCc1cccc(-c2cccc(-c3cc(=O)n(O)c4ncccc34)c2)c1	HeLa	-	<100 µM
Cc1nnc(-c2cccc(-c3ccc(C(=O)N(Cc4cccc(OCCCCCC(=O)OC(=O)O)c4)C(C)C)cc3)c2)o1	HepG2	-	>20 µM
c1ccc(COc2ccc(-c3ccc4ncnc(Nc5ccc(N6CCOCC6)cc5)c4c3)cc2)cc1	HUH 9B	-	>25 µM
CC(=O)C[C@@H]1C[C@H]2[C@H]([C@@H]3c4[nH]c5ccccc5c4CCN13)[C@H](O)C13CC/C=C\CCCCN1CC21CC/C=C\CCCNC13	A-594	-	>5 µg/mL
CC(c1ccc(-c2cccc(-c3cc(=O)n(O)c4ncccc34)c2)cc1)N1CCOCC1	HeLa	-	<100 µM
O=C(NCc1ccc(Cl)cc1)c1c[nH]c2ccc(CCCO)cc2c1=O	10T1/2	-	>100 µM
O=C(NCCc1cccc(-n2ccnc2)n1)Nc1ccc(Cl)nc1	PBMC	-	50 µM
Cc1nsc(C)c1C#N	L929	-	1000 µM
Cc1cc(C)n(-c2nc3c(c(=O)n2-c2ccc(OC[C@H](C)O)nc2)C[C@@H](C)N(C(=O)c2ccc(Br)c(C(F)(F)F)c2)C3)n1	HepG2.117	luminescence	>0.5 µM
O=C(C(=O)N1CCN(C(=O)c2ccccc2)CC1)c1c[nH]c2c(-c3cn(-c4ccccc4)nn3)ccnc12	HeLa	trypan blue	>100 µM
O=S(=O)(NCCc1ccc2c(n1)NCCC2)c1ccc(Oc2ccccc2)cc1	PBMC	-	50 µM
CC[C@H](C)[C@H]1OC(=O)[C@H](C(C)C)N(C)C(=O)[C@@H]([C@@H](C)CC)OC(=O)[C@H](C(C)C)N(C)C(=O)[C@@H]([C@@H](C)CC)OC(=O)[C@H](C(C)C)NC1=O	KB cells	absorbance	1.05 µM
Ic1ccc2ncnc(Nc3ccc(N4CCOCC4)cc3)c2c1	HUH 9B	-	10–25 µM
O=c1cc(CCc2ccccc2)c2cccnc2n1O	HeLa	-	<100 µM
COc1cnc(-n2ncc(C)n2)c2[nH]cc(C(=O)C(=O)N3CCN(C(=O)c4ccccc4)[C@H](C)C3)c12	HeLa	trypan blue	>100 µM
CN(CCc1ccc2c(n1)NCCC2)C(=O)N(C)Cc1ccc(Cl)c(Cl)c1	PBMC	-	4.9 µM
NCc1cccc(-c2cccc(Cc3cc(=O)n(O)c4ncccc34)c2)c1	HeLa	-	0.29 µM
CNC(=O)c1ncc(OC)c2c(C(=O)C(=O)N3CCN(C(=O)c4ccccc4)CC3)c[nH]c12	HeLa	trypan blue	>100 µM
Nc1ncnc2c1c(-c1ccco1)cn2[C@@H]1O[C@H](CO)[C@@H](O)[C@H]1F	Replicon cells	XTT	>44 µM
CCOC(=O)CCCCCOc1cccc(CN(C(=O)c2ccc(Br)cc2)C(C)C)c1	HEK 293	-	>20 µM
CCOC(=O)c1c(NCc2ccccc2)c2cccnc2n(O)c1=O	HeLa	-	<100 µM
CSc1nsc(-c2ccncc2)c1C#N	L929	-	2.5 µM
Cn1ccc2c(NC(=O)NCC3CCc4ccccc4N3)cccc21	PBMC	-	50 µM
COc1ccc(Cc2cc(C3CCN(C(=O)c4ccc5c(c4)OCO5)CC3)nc(=O)[nH]2)cc1	Jurkat cells (PMA-stimulated)	-	>5 µM
Cc1cc(N2CCOCC2)ccc1Nc1ncnc2ccc(-c3cccs3)cc12	HUH 9B	-	10–25 µM
CSc1nsc(-c2ccc[n+](C)c2)c1C#N	L929	-	1250 µM
Nc1nc(-c2ccc(Cl)cc2)cc(C2CCN(C(=O)c3ccc4c(c3)OCO4)CC2)n1	Jurkat cells (PMA-stimulated)	-	>5 µM
CCOC(=O)C1=C(CN2CC(F)(F)[C@@H]3[C@H]2CON3C[C@H](OC)C(C)(C)C(=O)O)NC(c2nccs2)=N[C@H]1c1ccc(F)c(F)c1F	HepG2.2.15	WST / absorbance	>100 µM
Cc1cc(C)n(-c2nc3c(c(=O)n2-c2ccc(N4CCNCC4)nc2)C[C@@H](C)N(C(=O)c2ccc(Br)c(C(F)(F)F)c2)C3)n1	HepG2.117	luminescence	>0.5 µM
CCOC(=O)c1c(-c2cc(CCc3ccccc3F)cc(-c3ccc(CN)cc3)c2)c2cccnc2n(O)c1=O	HeLa	-	<100 µM
CCOC(=O)CCCCCOc1cccc(CN(C(=O)c2ccc(-c3cccc(OCC(C)C)c3)cc2)C(C)C)c1	BJ	-	>20 µM
N#Cc1ccc(-c2nc(Nc3ccc(N4CCOCC4)cc3)c3ccccc3n2)cc1	HUH 9B	-	>25 µM
Cc1cc(NCCN2CCOCC2)c2ccc3c(ccc4c(NCCN5CCOCC5)cc(C)nc43)c2n1	Macrophage line RAW 264.7	MTT	0.00593 µM
Nc1ncnc2c1c(-c1cccs1)cn2[C@H]1O[C@H](CO)[C@@H](O)C1(F)F	Replicon cells	XTT	38.42 µM
O=C(c1cccc(-c2cc(=O)n(O)c3ncccc23)c1)N1CCOCC1	HeLa	-	<100 µM
Nc1ncnc2c1c(-c1ccoc1)cn2[C@@H]1O[C@H](CO)[C@@H](O)C1(F)F	Replicon cells	XTT	>44 µM
COc1ccc(Cc2cc(C3CCN(C(=O)c4ccc(Cl)c(Cl)c4)CC3)nc(N)n2)cc1	Jurkat cells (PMA-stimulated)	-	>5 µM
Cc1cc(C)n(-c2nc3c(c(=O)n2-c2ccc(OC[C@H](C)O)cc2)C[C@@H](C)N(C(=O)c2ccc(Br)c(C(F)(F)F)c2)C3)n1	HepG2.117	luminescence	>0.5 µM
O=C(NCCc1cccc(-n2ccnc2)n1)Nc1cccc(C(F)(F)F)c1F	PBMC	-	15 µM
O=c1c(-c2ccc(Cl)cc2)c(O)c2cccnc2n1O	HeLa	-	<100 µM
Oc1[nH]c2ccccc2c1N=NC(=S)N1CCOCC1	hRD	-	>25 µM
CS(=O)(=O)c1ccc(-c2ccc3ncnc(Nc4ccc(N5CCOCC5)cc4)c3c2)cc1	HUH 9B	-	>25 µM
Cc1cc(C)n(-c2nc3c(c(=O)n2-c2ccc(OC4CC(O)C4)cc2)C[C@@H](C)N(C(=O)c2ccc(Br)c(C(F)(F)F)c2)C3)n1	HepG2.117	luminescence	>0.5 µM
CCOC(=O)CCCCCOc1cccc(CN(C(=O)c2ccc(-c3ccsc3)cc2)C(C)C)c1	HEK 293	-	>20 µM
O=S(=O)(NCCc1ccc2c(n1)NCCC2)c1ccc(Cl)c(Cl)c1	PBMC	-	50 µM
CCn1c(O)c(N=NC(=S)Nc2ccccc2)c2ccccc21	hRD	-	>25 µM
CCOC(=O)CCCCCOc1cccc(CN(C(=O)c2ccc(-c3ccc4cc[nH]c4c3)cc2)C(C)C)c1	RAJI	-	>20 µM
COC(=O)C1=C(CN2CC(F)(F)[C@H]3[C@@H]2CCN3CC[C@](C)(O)C(=O)O)NC(c2nccs2)=N[C@H]1c1ccc(F)c(F)c1F	HepG2.2.15	WST / absorbance	>100 µM
Oc1[nH]c2ccc(Cl)cc2c1N=NC(=S)Nc1ccccc1	RD	-	>25 µM
Nc1ncnc2c1c(-c1cccs1)cn2[C@@H]1O[C@H](CO)[C@@H](O)C1(F)F	Replicon cells	XTT	9.84 µM
COC(=O)C1=C(CN2CC(F)(F)[C@H]3[C@@H]2CCN3C[C@@H](O)C(C)(C)C(=O)O)NC(c2nccs2)=N[C@H]1c1cccc(F)c1F	HepG2.2.15	WST / absorbance	>100 µM
CSc1nsc(C)c1C#N	L929	-	100 µM
CCOC(OCC)C(=O)NCCc1ccc(OC)c(OC)c1	BJ	-	<7.5 µM
COC(=O)C1=C(CN2CC(F)(F)[C@@H]3[C@H]2CON3C[C@@H](F)C(C)(C)C(=O)O)NC(c2nccs2)=N[C@H]1c1ccc(F)cc1Cl	HepG2.2.15	WST / absorbance	50 µM
Nc1nc(Cc2ccc3c(c2)OCO3)cc(C2CCN(C(=O)c3ccc4c(c3)OCO4)CC2)n1	Jurkat cells (PMA-stimulated)	-	0.7 µM
Nc1ncnc2c1c(-c1ccoc1)cn2[C@@H]1O[C@H](CO)[C@@H](O)[C@H]1F	Replicon cells	XTT	37.44 µM
COc1cc(Nc2ncnc3ccc(I)cc23)ccc1N1CCOCC1	HUH 9B	-	10–25 µM
Cc1cc(C)n(-c2nc3c(c(=O)n2-c2ccc(O)cc2)C[C@@H](C)N(C(=O)c2ccc(Br)c(C(F)(F)F)c2)C3)n1	HepG2.117	luminescence	>0.5 µM
O=C(NCCc1ccc2c(n1)NCCC2)Nc1ccccc1Cl	PBMC	-	50 µM
N#Cc1c(-c2ccccc2)s[nH]c1=S	HEP-2	-	60 µM

A second listing of 6 rows from above:

SMILES	cells	read by	value
CN(CCc1ccc2c(n1)NCCC2)C(=O)N(C)Cc1ccc(Cl)c(Cl)c1	PBMC	-	4.9 µM
O=C(NCCc1ccc2c(n1)NCCC2)Nc1ccccc1Cl	PBMC	-	50 µM
N#Cc1ccc(-c2nc(Nc3ccc(N4CCOCC4)cc3)c3ccccc3n2)cc1	HUH 9B	-	>25 µM
CCn1c(O)c(N=NC(=S)Nc2ccccc2)c2ccccc21	hRD	-	>25 µM
Nc1nc(-c2ccc(Cl)cc2)cc(C2CCN(C(=O)c3ccc4c(c3)OCO4)CC2)n1	Jurkat cells (PMA-stimulated)	-	>5 µM
Cc1cc(C)n(-c2nc3c(c(=O)n2-c2ccc(OC4CC(O)C4)cc2)C[C@@H](C)N(C(=O)c2ccc(Br)c(C(F)(F)F)c2)C3)n1	HepG2.117	luminescence	>0.5 µM